How the values were obtained:
Format in all cases: functional
[1] = tested on: Bacillus cereus; test: Bactericidal activity against Bacillus cereus 8035 incubated for 4 hrs
[2] = tested on: Staphylococcus aureus; test: Bactericidal activity against Staphylococcus aureus 209p incubated for 4 hrs
[3] = tested on: Escherichia coli; test: Bactericidal activity against Escherichia coli F-50 incubated for 4 hrs
[4] = tested on: Pseudomonas aeruginosa; test: Bactericidal activity against Pseudomonas aeruginosa 9027 incubated for 4 hrs

| Compound | MBC [1] [µg/mL] | MBC [2] [µg/mL] | MBC [3] [µg/mL] | MBC [4] [µg/mL] |
| --- | --- | --- | --- | --- |
| CCn1cc(C(=O)O)c(=O)c2cc(F)c(N3CCNCC3)cc21.O=[N+]([O-])c1c(Cl)c([N+](=O)[O-])c2no[n+]([O-])c2c1O | 31.3 | 15.6 | 62.5 | 62.5 |
| O=C(O)c1cn(C2CC2)c2cc(N3CCNCC3)c(F)cc2c1=O.O=[N+]([O-])c1c(Cl)c([N+](=O)[O-])c2no[n+]([O-])c2c1O | 3.1 | 1.5 | 3.1 | 3.1 |
| CCn1cc(C(=O)O)c(=O)c2cc(F)c(N3CCNC(C)C3)c(F)c21.O=[N+]([O-])c1cc([N+](=O)[O-])c2no[n+]([O-])c2c1O (configuration not stated) | 3.9 | 3.9 | 62.5 | 62.5 |
| CCn1cc(C(=O)O)c(=O)c2cc(F)c(N3CCNCC3)cc21.O=[N+]([O-])c1cc([N+](=O)[O-])c2no[n+]([O-])c2c1O | 7.8 | 7.8 | 7.8 | 7.8 |
| CCn1cc(C(=O)O)c(=O)c2cc(F)c(N3CCNC(C)C3)c(F)c21.O=[N+]([O-])c1c(Cl)c([N+](=O)[O-])c2no[n+]([O-])c2c1O (configuration not stated) | 3.1 | 7.8 | 62.5 | 62.5 |
| CC1CN(c2c(F)c(N)c3c(=O)c(C(=O)O)cn(C4CC4)c3c2F)CC(C)N1.O=[N+]([O-])c1c(Cl)c([N+](=O)[O-])c2no[n+]([O-])c2c1O (configuration not stated) | 0.78 | 0.39 | 3.1 | 6.3 |
| O=C(O)c1cn(C2CC2)c2cc(N3CCNCC3)c(F)cc2c1=O.O=[N+]([O-])c1cc([N+](=O)[O-])c2no[n+]([O-])c2c1O | 1.9 | 1.9 | 3.1 | 3.1 |
| CC1CN(c2c(F)c(N)c3c(=O)c(C(=O)O)cn(C4CC4)c3c2F)CC(C)N1.O=[N+]([O-])c1cc([N+](=O)[O-])c2no[n+]([O-])c2c1O (configuration not stated) | 3.1 | 1.9 | 3.1 | 6.3 |
